Experimental data: PMC4728508 (Marine Drugs, 2016)
pIC50: −log10 of the molar value. Some compounds may have been tested in ways that are not shown here.

The chains behind the UniProt entries cited, without tags or fusion partners. Residues count along the entry.
UniProt P04757, 26-499 limits assumed: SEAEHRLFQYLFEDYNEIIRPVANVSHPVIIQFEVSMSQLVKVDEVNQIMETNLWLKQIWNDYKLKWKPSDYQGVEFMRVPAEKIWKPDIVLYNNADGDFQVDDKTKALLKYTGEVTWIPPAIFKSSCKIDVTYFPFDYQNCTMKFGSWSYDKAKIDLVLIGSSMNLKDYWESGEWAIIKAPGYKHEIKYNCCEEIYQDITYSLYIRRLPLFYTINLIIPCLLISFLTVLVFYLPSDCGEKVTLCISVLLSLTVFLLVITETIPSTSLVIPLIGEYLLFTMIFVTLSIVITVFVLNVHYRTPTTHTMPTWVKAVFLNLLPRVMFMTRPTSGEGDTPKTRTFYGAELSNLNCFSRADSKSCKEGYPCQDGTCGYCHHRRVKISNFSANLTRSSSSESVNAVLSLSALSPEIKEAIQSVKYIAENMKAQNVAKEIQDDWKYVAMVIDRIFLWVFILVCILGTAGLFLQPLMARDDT
UniProt P12390, 25-500 limits assumed: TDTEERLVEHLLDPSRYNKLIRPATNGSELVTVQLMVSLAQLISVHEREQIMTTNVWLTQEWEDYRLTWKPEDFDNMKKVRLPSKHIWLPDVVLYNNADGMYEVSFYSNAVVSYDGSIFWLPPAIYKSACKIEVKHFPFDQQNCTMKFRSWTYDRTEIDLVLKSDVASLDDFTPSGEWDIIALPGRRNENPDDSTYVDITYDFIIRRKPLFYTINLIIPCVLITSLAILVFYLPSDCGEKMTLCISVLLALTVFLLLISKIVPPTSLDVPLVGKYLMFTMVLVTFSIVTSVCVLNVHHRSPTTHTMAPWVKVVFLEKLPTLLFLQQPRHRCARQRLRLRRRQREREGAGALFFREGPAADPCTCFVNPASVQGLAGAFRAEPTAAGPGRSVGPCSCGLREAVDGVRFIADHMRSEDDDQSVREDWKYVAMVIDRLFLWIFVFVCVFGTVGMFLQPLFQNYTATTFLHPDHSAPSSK
UniProt P17787, 26-502 limits assumed: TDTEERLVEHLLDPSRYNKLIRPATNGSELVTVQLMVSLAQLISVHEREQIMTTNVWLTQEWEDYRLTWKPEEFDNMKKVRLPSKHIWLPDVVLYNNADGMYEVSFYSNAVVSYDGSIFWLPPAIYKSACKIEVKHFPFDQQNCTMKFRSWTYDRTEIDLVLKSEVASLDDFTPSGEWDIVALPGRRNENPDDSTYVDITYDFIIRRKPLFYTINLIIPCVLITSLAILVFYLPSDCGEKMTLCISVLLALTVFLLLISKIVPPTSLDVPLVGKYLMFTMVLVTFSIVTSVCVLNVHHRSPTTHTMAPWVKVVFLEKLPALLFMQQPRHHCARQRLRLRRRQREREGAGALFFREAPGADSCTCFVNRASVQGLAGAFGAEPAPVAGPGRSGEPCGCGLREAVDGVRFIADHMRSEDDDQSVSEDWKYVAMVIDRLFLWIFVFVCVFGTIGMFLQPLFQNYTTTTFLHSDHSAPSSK
UniProt P32297, 32-505 limits assumed: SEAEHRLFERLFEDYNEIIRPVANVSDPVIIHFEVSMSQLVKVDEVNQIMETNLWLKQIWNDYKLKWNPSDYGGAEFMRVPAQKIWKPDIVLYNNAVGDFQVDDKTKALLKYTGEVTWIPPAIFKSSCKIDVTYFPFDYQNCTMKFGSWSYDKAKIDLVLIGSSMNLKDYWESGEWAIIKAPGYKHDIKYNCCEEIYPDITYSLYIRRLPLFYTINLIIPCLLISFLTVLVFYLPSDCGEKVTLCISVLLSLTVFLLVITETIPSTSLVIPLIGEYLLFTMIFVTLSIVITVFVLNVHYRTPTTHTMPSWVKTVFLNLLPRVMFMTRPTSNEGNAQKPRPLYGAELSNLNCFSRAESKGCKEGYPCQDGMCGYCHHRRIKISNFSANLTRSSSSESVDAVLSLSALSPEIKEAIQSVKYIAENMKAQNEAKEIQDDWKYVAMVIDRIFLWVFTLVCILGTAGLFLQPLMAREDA

Columns and labels:
[1] = test system: Kunming mice; test: Mouse hot-plate test (55 °C); format: in vivo
[2] = target: rat α3β2 nAChR (Rattus norvegicus, UniProt P04757+P12390); test: Two-electrode voltage clamp, ACh-evoked currents, rat α3β2 nAChR in Xenopus oocytes; format: cell-based
[3] = target: human α3β2 nAChR (Homo sapiens, UniProt P17787+P32297); test: Two-electrode voltage clamp, ACh-evoked currents, human α3β2 nAChR in Xenopus oocytes; format: cell-based

In the case of `CC[C@H](C)[C@@H]1NC(=O)[C@H](CCC(=O)O)NC(=O)[C@@H]2CCCN2C(=O)[C@H](Cc2c[nH]cn2)NC(=O)[C@H](CC(=O)O)NC(=O)[C@H](C(C)C)NC(=O)[C@H](CC(N)=O)NC(=O)[C@@H]2CSSC[C@H](NC(=O)CNC(=O)[C@@H](N)CCSC)C(=O)N[C@@H](CSSC[C@@H](C(=O)O)NC1=O)C(=O)N[C@@H](CO)C(=O)N[C@@H](Cc1c[nH]cn1)C(=O)N1CCC[C@H]1C(=O)N[C@@H](C)C(=O)N2` [rLvIA], the “AUC of latency versus morphine 250 nmol” value ([1]; rLvIA 10 nmol i.c.v. vs morphine 250 nmol s.c., p > 0.05) was “did not significantly differ”, the “latency time (maximum effect)” value ([1]; rLvIA 10 nmol i.c.v., 90 min after injection, 55 °C hot plate, n = 8, cut off 40 s) was 24.17 s and the “AUC of latency, 0 to 150 min, versus saline” value ([1]; rLvIA 10 nmol i.c.v., p < 0.01, n = 8) was “significant increase in AUC”. The “blockade of ACh-evoked currents” value ([2]; 1 μM rLvIA, rat α3β2, 5 min pre-application, 100 μM ACh) was “More than 90%”, the “blockade of α3β2” value ([2]; 1 μM rLvIA, rat α3β2, Figure 6A) was “almost blocked α3β2 at 1 μM concentration completely” and the Target ([2]; Table 3, Activity/Target, rLvIA, This work) was “α3β2 nAChRs”. The “selectivity rat α3β2 versus α3β4” value ([2]; rLvIA compared with native LvIA) was “better selectivity in rat α3β2 than α3β4 nAChR subtypes”, the pIC50 ([2]; rLvIA on rat α3β2 nAChR in Xenopus oocytes, 1-s pulse of 100 μM ACh, toxin pre-applied 5 min, −70 mV, room temperature (24 °C), 5 to 8 separate oocytes, nonlinear regression) was 6.79 and the “antagonism of α3β2 nAChR” value ([2]; rat nAChR subtypes in Xenopus laevis oocytes) was “antagonized the α3β2 nAChR subtype selectively”. For the same compound, the “IC50” value ([2]; α3β2 nAChR subtype, abstract) was “nano-molar”, the pIC50 ([3]; rLvIA on human α3β2 nAChR in Xenopus oocytes, 1-s pulse of 100 μM ACh, toxin pre-applied 5 min, −70 mV, room temperature (24 °C), 5 to 8 separate oocytes, nonlinear regression) was 7.33 and the “activity human versus rat α3β2” value ([3]; rLvIA, human vs rat α3β2) was “better activity in the human α3β2 nAChR than on the rat α3β2 nAChR”.
